“And” between values parts separate entries of the source, which are not always exact repeats. Equal entries are not always repeated.
Columns and labels:
[1] = biological target: SARS-CoV-2 non-structural protein 10 (nsp10) (SARS-CoV-2) (UniProt P0DTD1); assay: SEC; analytical SEC, Superdex 75 Increase 10/300 GL, 50 mM Tris pH 8.0, 150 mM NaCl, 4 °C; nsp10 concentrated to 55 mg/mL, kept at 4 °C for 20 h, diluted to 3 mg/mL
[2] = biological target: SARS-CoV-2 non-structural protein 10 (nsp10) (SARS-CoV-2) (UniProt P0DTD1); assay: SEC; analytical SEC, Superdex 75 Increase 10/300 GL, 50 mM Tris pH 8.0, 150 mM NaCl, 4 °C; nsp10 concentrated to 55 mg/mL, kept at 4 °C for 44 h, diluted to 3 mg/mL
[3] = biological target: SARS-CoV-2 non-structural protein 10 (nsp10) (SARS-CoV-2) (UniProt P0DTD1); assay: SEC
[4] = biological target: SARS-CoV-2 non-structural protein 10 (nsp10) (SARS-CoV-2) (UniProt P0DTD1); assay: AUC

## SARS-CoV-2 non-structural protein 10 (nsp10) (from UniProt P0DTD1 4264-4385) (domain or fragment)
[1]
  ratio of dimer to monomer (dimer:monomer): 0.067
  stoichiometry N: 2
[2]
  ratio of dimer to monomer (dimer:monomer): 0.1
  stoichiometry N: 2
[3]
  ratio of dimer to monomer (dimer:monomer): 0.02
  stoichiometry N: 2
[4]
  percent monomer: 74% to 100% and 53% to 68% (2×)
  stoichiometry N: 2
